# From publication PMC10057528, “Trypanosoma cruzi Sirtuin 2 as a Relevant Druggable Target: New Inhibitors Developed by Computer-Aided Drug Design” (Pharmaceuticals, 2023)
# Sequences of proteins named here, by UniProt entry; tags and fusion partners are left off. Residues count along the entry.
# UniProt Q4DP02, 1-359: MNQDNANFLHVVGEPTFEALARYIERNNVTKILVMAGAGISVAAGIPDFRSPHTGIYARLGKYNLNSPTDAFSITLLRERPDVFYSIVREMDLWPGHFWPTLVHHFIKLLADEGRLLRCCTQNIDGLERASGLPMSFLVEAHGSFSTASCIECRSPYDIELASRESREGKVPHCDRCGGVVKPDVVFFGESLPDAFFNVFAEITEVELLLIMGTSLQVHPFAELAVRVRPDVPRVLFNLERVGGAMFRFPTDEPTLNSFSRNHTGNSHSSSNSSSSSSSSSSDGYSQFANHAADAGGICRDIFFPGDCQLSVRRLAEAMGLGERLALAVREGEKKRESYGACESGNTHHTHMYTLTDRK
# pEC50, pIC50: −log10 of the molar value.
# Assays:
# [1] = tested on: T. cruzi amastigote; test: In vitro trypanocidal activity with amastigote forms (Tulahuen LacZ, CPRG); format: cell-based, Trypanosoma cruzi; details: read-out: IC50 T. cruzi ama; intracellular amastigotes in LLCMK2 cells, 72 h; ND* = values measured but did not converge IC50 significantly
# Description: In 96-well plates, cells from the LLCMK2 lineage were seeded at a concentration of 5 × 10^4 cells/mL (80 μL). The trypomastigote forms of the Tulahuen LacZ strain were added at a concentration of 5 × 10^5 cells/mL (in a total of 20 μL) and, subsequently incubated for 24 h at 37 °C with a 5% CO2 atmosphere. Next, the trypomastigote forms present in the supernatant were washed, leaving only the amastigote forms. Serial dilutions of the compounds were added (1.95 to 200 µM) and the plate was incubated for 72 h at 37 °C with a 5% CO2 atmosphere. At the end of this period, the CPRG substrate (chlorophenol red β-D-galactopyranoside, 400 μM in 0.3% Triton X-100, pH 7.4) was added and incubated for additional 6 h. After incubation, the sample’s absorbance values were measured using a spectrophotometer at 570 nm. Benznidazole and dimethyl sulfoxide (DMSO) in the same concentrations as tested compounds were used as the positive and negative controls, respectively.
# [2] = tested on: LLCMK2 cells; test: Mammalian cell viability assay (MTT); details: read-out: EC50 Cell Toxicity, 72 h, ND* = values measured but did not converge IC50 significantly
# [3] = target: TcSir2 (Trypanosoma cruzi, UniProt Q4DP02); test: Recombinant TcSir2 activity assay (fluorescent peptide deacetylation); details: read-out: IC50 (TcSir2); recombinant TcSir2 0.1 μM, 10 μM peptide, 25 μM NAD+, 37 °C; ND = values measured but did not converge IC50 significantly
smiles,measurement,setting,value
CCCN(C(=O)COC(=O)CCOc1ccccc1C)c1c(N)n(Cc2ccccc2)c(=O)[nH]c1=O,pIC50,[1],3.77
same,pEC50,[2],3.64
same,pIC50,[3],3.48
